# Measured values as given in US20260031189A1, “METHOD AND SYSTEMS FOR PREDICTION OF HLA CLASS II-SPECIFIC EPITOPES AND CHARACTERIZATION OF CD4+ T CELLS” (BioNTech US Inc., priority 2022, published 2026).
# Values joined by “and” are separate entries in the source; they are usually repeats but may differ in a detail not shown here. Equal entries are not always repeated.
# Legend:
# fDR1 (Homo sapiens) [1] = assay: FP competition assay, average IC50 of n=2, L243 purified fDR1
# [2] = target: DRB1*01:01 (High PTM) (Homo sapiens)
# fDR1 (Homo sapiens) [3] = assay: FP competition assay, average IC50 of n=2, Ni purified fDR1
# fDR1 (Homo sapiens) [4] = assay: FP competition assay, average IC50 of n=2, Ni purified full length DR1 (fDR1)
substance,measurement,setting,value
HA peptide,IC50,fDR1 (Homo sapiens) [1],41 nM
same,percent printed in the APC / PE flow plot,[2],1.78% and 0.34% and 0.15%
same,IC50,fDR1 (Homo sapiens) [3],33 nM
same,IC50,fDR1 (Homo sapiens) [4],33 nM
